This data set is described as follows: general procedure: Fmoc solid-phase peptide synthesis; Sieber amide resin; DIPCDI/Oxyma. The following applies: whole synthesis, scale 0.01 mmol, TFA salt; acetate after ion exchange.

The results in this text go back to patent publication US12122815B2 (TAKEDA PHARMACEUTICAL COMPANY LIMITED, priority 2018, dated 2024).

On to “Tyr-Aib-Glu-Gly-Thr-Val-Val-Ser-Leu-Tyr-Ser-Ile-Aib-Leu-Asp-Lys-Gln-Ala-Gln-Aib-Glu-Phe-Val-Lys-Trp-Leu-Leu-Lys-Gly-Gly-Pro-Ser-Ser-Gly-Ala-Pro-Pro-Pro-Ser-Lys(Heda-Gly-Gly-Gly-Gly-)”, for which the isolated mass is 1.0 mg.
